Pooled drug test results. Numbers come from NIAID ChemDB, via PubChem.

All rows: tests in culture; organism: Parainfluenza virus

ECn is the concentration giving n% inhibition of infection, replication or growth. Neighbouring rows are from separate reports. Blank or dashed fields: not listed here. a–b is a range or a potency band.

compound,cell line,read by,measure,strain or isolate,value
NC(=O)c1ncn([C@@H]2O[C@H](CO)[C@@H](O)[C@H]2O)c1C#CCO,VERO,cytopathic effect,EC50,TYPE 3,4 µg/mL
OC[C@H]1O[C@@H](n2cnc3cc(Cl)c(Cl)cc32)[C@@H](O)[C@@H]1O,HeLa,cytopathic effect,EC50,TYPE 3,>200 µg/mL
C#Cc1c(C(N)=O)ncn1[C@@H]1O[C@H](CO)[C@@H](O)[C@H]1O,VERO,plaque count,EC50,TYPE 2/CA GREER,0.63 µg/mL
C/C=C1\[C@H](OC2O[C@H](CO)[C@@H](O)[C@H](O)[C@H]2O)OC=C(C(=O)OC)[C@H]1CC(=O)OC,HEP-2,cytopathic effect,EC50,TYPE 3,20.8 µM
CCN1C[C@]2(CO)CC[C@H](OC)[C@]34C5CC6[C@H](OC)C5[C@](O)(C[C@@H]6OC)[C@@](O)(C13)[C@@H](OC)[C@H]24,VERO,cytopathic effect,EC50,TYPE 3,8–32 µg/mL
Nc1ccn([C@@H]2C[C@H](CO)[C@@H](O)[C@H]2O)c(=O)n1,VERO,cytopathic effect,EC50,TYPE 3,6 µg/mL
Nc1ncnc2c1ncn2[C@@H]1C[C@@H](O)[C@H](CO)O1,MA-104,-,EC50,TYPE 3,>100 µM
COc1ccc(-c2cc(=O)c3c(OC)cc(OC)c([C@H]4C(=O)c5c(OC)cc(OC)cc5O[C@@H]4c4ccc(OC)cc4)c3o2)cc1,MA-104,neutral red,EC50,C243 (TYPE 3),>32 µg/mL
Nc1nccc2c1ncn2[C@@H]1C[C@H](CO)[C@@H](O)[C@H]1O,VERO,cytopathic effect,EC50,TYPE 3,4 µg/mL
OC[C@H]1O[C@@H](n2cnc3cc(Cl)c(Cl)cc32)[C@H](O)[C@H]1O,HeLa,cytopathic effect,EC50,TYPE 3,>100 µg/mL
[N-]=C=Nc1nncs1,HEP-2,cytopathic effect,EC50,TYPE 3,9.6 µg/mL
Nc1nc2c(ncn2COCOCP(=O)(O)O)c(=O)[nH]1,-,cytopathic effect,EC50,14798 (TYPE 3),100 µg/mL
COc1c(C)c2c(c(O)c1CC(=O)O)C(=O)OC2,VERO,plaque count,EC50,TYPE 2/GREER,0.9 µg/mL
Nc1nc(N)c2ncn(C[C@H]3CC[C@@H](CO)C3)c2n1,VERO,cytopathic effect,EC50,TYPE 3,>200 µg/mL
Nc1ncnc2c1ncn2C[C@@H](CO)OCP(=O)(O)O,-,cytopathic effect,EC50,TYPE 3,>50 µM
Cc1cn([C@@H]2C[C@H](CO)[C@H](O)C2)c(=O)[nH]c1=O,VERO,cytopathic effect,EC50,TYPE 3,>200 µg/mL
NC(=O)c1ncn([C@@H]2O[C@H](CO)[C@@H](O)[C@H]2O)c1C#CCCO,HeLa,cytopathic effect,EC50,TYPE 3,7 µg/mL
Nc1ncnc2c1ncn2[C@@H]1C[C@@H](O)[C@H](CO)O1,MA-104,-,EC50,TYPE 3,>100 µM
Cc1cn([C@H]2C[C@@H]3OC[C@H]2[C@@H]3CO)c(=O)[nH]c1=O,VERO,cytopathic effect,EC50,TYPE 3,>400 µg/mL
Cc1cn([C@@H]2C[C@@H](O)[C@H](CO)O2)c(=O)[nH]c1=O,MA-104,-,EC50,TYPE 3,>100 µM
C[C@H](COc1cc(N)nc(N)n1)OCP(=O)(O)O,-,cytopathic effect,EC50,TYPE 3,>180 µM
CCN1C[C@]2(COC)CC[C@H](O)[C@]34C1[C@@](O)([C@@H](OC)[C@H]23)[C@@]1(O)C[C@H](OC)C2C[C@@H]4[C@@H]1[C@H]2O,VERO,cytopathic effect,EC50,TYPE 3,1–32 µg/mL
Nc1nccc2c1ncn2[C@@H]1C[C@H](CO)[C@@H](O)[C@H]1O,VERO,cytopathic effect,EC50,VR-93 (TYPE 3),0.7 µg/mL
COc1cc(O)c2c(=O)c3cccc(O)c3n(C)c2c1OC,VERO,plaque count,EC50,TYPE 2,>20 µg/mL
Nc1ncnc2c1ncn2[C@@H]1C[C@H](CO)[C@@H](O)C1,VERO,cytopathic effect,EC50,TYPE 3,>100 µg/mL
Nc1nc2c(nnn2C[C@H]2CC[C@@H](CO)C2)c(=O)[nH]1,VERO,cytopathic effect,EC50,TYPE 3,>200 µg/mL
Nc1nccc2c1ncn2[C@@H]1C[C@H](CO)[C@@H](O)[C@H]1O,VERO,cytopathic effect,EC50,TYPE 3,0.2 µg/mL
Cc1cn([C@H]2C[C@H](O)[C@@H](CO)[C@@H]2C)c(=O)[nH]c1=O,VERO,cytopathic effect,EC50,TYPE 3,>400 µg/mL
OC[C@H]1O[C@@H](n2cnc3cc(Cl)c(Cl)cc32)[C@@H](O)[C@H]1O,HeLa,cytopathic effect,EC50,TYPE 3,>100 µg/mL
NC(=O)c1csc([C@@H]2O[C@H](CO)[C@@H](O)[C@H]2O)n1,HeLa,cytopathic effect,EC50,TYPE 3/C243,11 µg/mL
Nc1ncnc2c1ncn2C[C@H](O)CO,VERO,cytopathic effect,EC50,TYPE 3,100 µg/mL
CC(C)[Si]1(C(C)C)OC[C@H]2O[C@@H](n3cnc4cc(Cl)c(Cl)cc43)[C@H](O)[C@H]2O[Si](C(C)C)(C(C)C)O1,HeLa,cytopathic effect,EC50,TYPE 3,>10 µg/mL
N=C(N)CCNC(=O)[C@H]1CCC(N)=N1,-,-,MIC,TYPE 3,12 µg/mL
Nc1nccc2c1ncn2[C@@H]1C[C@H](CO)[C@@H](O)[C@H]1O,VERO,cytopathic effect,EC50,TYPE 3,0.2 µg/mL
Nc1ncnc2c1ncn2[C@@H]1C=C(CO)[C@@H](O)[C@H]1O,VERO,cytopathic effect,EC50,TYPE 3,0.2 µg/mL
C[C@H](Cn1cnc2c(N)ncnc21)OCP(=O)(O)O,-,cytopathic effect,EC50,TYPE 3,>525 µM
Cc1cn([C@@H]2C[C@@H](O)[C@H](CO)O2)c(=O)[nH]c1=O,MA-104,-,EC50,TYPE 3,>100 µM
NC(=O)c1ncn([C@@H]2O[C@H](CO)[C@@H](O)[C@H]2O)n1,HeLa,plaque count,EC50,ATCC VR-93 (TYPE 3),18 µg/mL
Nc1ncnc2c1ccn2[C@@H]1O[C@H](CO)[C@@H](O)[C@H]1O,VERO,cytopathic effect,EC50,TYPE 3,>0.1 µg/mL
Nc1ncnc2c1ncn2[C@@H]1C=C(CO)[C@@H](O)[C@H]1O,-,-,MIC,TYPE 3,0.2 µg/mL
O=c1[nH]c(=O)n([C@H]2C[C@H](O)[C@@H](CO)O2)cc1/C=C/Br,VERO,cytopathic effect,EC50,TYPE 3,>400 µg/mL
Nc1ncnc2c1ncn2C[C@@H](O)[C@H](O)C(=O)O,VERO,cytopathic effect,EC50,TYPE 3,150 µg/mL
CC(=O)Oc1ccc([C@@H]2CC(=O)c3c(cc(OC(C)=O)c(-c4c(OC(C)=O)cc5c(c4OC(C)=O)C(=O)C[C@@H](c4ccc(OC(C)=O)cc4)O5)c3OC(C)=O)O2)cc1,MA-104,cytopathic effect,EC50,C243 (TYPE 3),>10 µg/mL
C/C=C1\[C@H](OC2O[C@H](CO)[C@@H](O)[C@H](O)[C@H]2O)OC=C(C(=O)O)[C@H]1CC(=O)OCC(OCC)c1ccc(O)c(O)c1,HEP-2,cytopathic effect,EC50,TYPE 3,20.8 µM
C#Cc1c(C(N)=O)ncn1[C@@H]1O[C@H](CO)[C@@H](O)[C@H]1O,VERO,cytopathic effect,EC50,TYPE 3,1 µg/mL
Nc1nccc2c1ncn2[C@@H]1O[C@H](CO)[C@@H](O)[C@H]1O,VERO,cytopathic effect,EC50,TYPE 3,2 µg/mL
CCC1[C@H](OC2O[C@H](CO)[C@@H](O)[C@H](O)[C@H]2O)OC=C(C(=O)O)[C@H]1CC(=O)OCCc1ccc(O)cc1,HEP-2,cytopathic effect,EC50,TYPE 3,41.7 µM
Nc1ncnc2c1ncn2C1CC(CO)[C@@H](O)[C@H]1O,VERO,cytopathic effect,EC50,TYPE 3,≥4 µg/mL

For reference, 3 entries again:

compound,cell line,read by,measure,strain or isolate,value
NC(=O)c1csc([C@@H]2O[C@H](CO)[C@@H](O)[C@H]2O)n1,HeLa,cytopathic effect,EC50,TYPE 3/C243,11 µg/mL
CCC1[C@H](OC2O[C@H](CO)[C@@H](O)[C@H](O)[C@H]2O)OC=C(C(=O)O)[C@H]1CC(=O)OCCc1ccc(O)cc1,HEP-2,cytopathic effect,EC50,TYPE 3,41.7 µM
Nc1ncnc2c1ncn2C[C@@H](CO)OCP(=O)(O)O,-,cytopathic effect,EC50,TYPE 3,>50 µM